Values from PubChem BioAssay AID504761 (Drosophila RNAi Screening Center, 2011).
Aim: 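Insect host genes that dengue virus relies on to spread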 (primary screen). Cell system: D.Mel-2 cells from Drosophila. Reagents: long dsRNA against Drosophila genes. Challenge: infection with dengue virus type 2; dose and infection time not stated. Measurement: 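Cells stained for dengue envelope protein and imaged; percent of infected cells per well on duplicate plates, ranked by infection, with stained nuclei counted for cell number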. Scale: infection score: higher = more virus-infected cells. Hit rule: 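Very low infection ranking in both replicate wells (chance probability at most 0.065), then a retest showing infection dropped 1.5-fold or more at p below 0.05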. Calls: active = confirmed: knock-down lowers infection; inactive = not picked or not confirmed.
In all, the deposit lists about 22,000 reagents; this is a random part of those with a known target gene and a result. Over the whole deposit, 116 (0.52%) were called active. 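Calls depend on retest data that are not deposited; infection was ranked per plate without normalising between plates; the unit of the infection score is not given.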 The numbers tell different reagents against one gene apart. Further read-outs or replicates are left out here. No sequences are given here. The record does not give: the amount of reagent, the time to read-out.

| Gene | reagent no. | infection score, replicate 1 | infection score, replicate 2 | activity call |
| --- | --- | --- | --- | --- |
| CG14568 | 1 | 4.27 | 7.76 | inactive |
| Cpr31A | 1 | 2.21 | 1.93 | inactive |
| Cpr31A | 2 | 15.5 | 23.2 | inactive |
| CG13033 | 1 | 1.54 | 2.19 | inactive |
| CG13033 | 2 | 5.11 | 6.71 | inactive |
| CG1840 | 1 | 2.29 | 2.32 | inactive |
| CG1840 | 2 | 4.27 | 5.16 | inactive |
| Art9 | 1 | 2.99 | 1.54 | inactive |
| jagn | 1 | 10.1 | 18.8 | inactive |
| NfI | 1 | – | 11.2 | inactive |
| CG12547 | 1 | 3.95 | 0.58 | inactive |
| CG31809 | 1 | 11.3 | 0.84 | inactive |
| Tsf1 | 1 | 8.47 | 6.11 | inactive |
| Tsf1 | 2 | 11 | 18.6 | inactive |
| CG12637 | 1 | 7 | 7.16 | inactive |
| CG12637 | 2 | 20.1 | 26.7 | inactive |
| mirr | 1 | 0.7 | 2.69 | inactive |
| mirr | 2 | 3.87 | 4.86 | inactive |
| Galphai | 1 | 9.78 | 7.67 | inactive |
| Galphai | 2 | 11.4 | 3.65 | inactive |
| Lrt | 1 | 2.84 | 1.02 | inactive |
| Lrt | 2 | 3.43 | 5.49 | inactive |

6 of these entries in another layout:
NfI
- infection score, replicate 2: 11.2
- activity call: inactive

CG12547
- infection score, replicate 1: 3.95
- infection score, replicate 2: 0.58
- activity call: inactive

CG31809
- infection score, replicate 1: 11.3
- infection score, replicate 2: 0.84
- activity call: inactive

Tsf1 #1
- infection score, replicate 1: 8.47
- infection score, replicate 2: 6.11
- activity call: inactive

Tsf1 #2
- infection score, replicate 1: 11
- infection score, replicate 2: 18.6
- activity call: inactive

CG12637 #1
- infection score, replicate 1: 7
- infection score, replicate 2: 7.16
- activity call: inactive

Further reagents follow.
| Gene | reagent no. | infection score, replicate 1 | infection score, replicate 2 | activity call |
| --- | --- | --- | --- | --- |
| veil | 1 | 5.79 | 7.05 | inactive |
| CG6044 | 1 | 0.39 | – | inactive |
| CG14641 | 1 | 6.02 | 8.18 | inactive |
| CG14641 | 2 | 3.76 | 5.69 | inactive |
| eloF | 1 | 7.5 | 5.76 | inactive |
| eloF | 2 | 2.85 | 3.04 | inactive |
| CG33462 | 1 | 1.63 | – | inactive |
| Rcd5 | 1 | 5.62 | 5.56 | inactive |
| Rcd5 | 2 | 9.56 | 21.3 | inactive |
| CG12237 | 1 | 14 | 3.63 | inactive |
| CG12237 | 2 | 1.73 | 1.75 | inactive |
| CG12237 | 3 | 14.5 | 26.9 | inactive |
| Sr-CII | 1 | 16.4 | 6.12 | inactive |
| Sr-CII | 2 | 3.66 | 4.34 | inactive |
| Trpgamma | 1 | 18.8 | 3.31 | inactive |
| Usp14 | 1 | 19.1 | 6.18 | inactive |
| Usp14 | 2 | 9.11 | 17 | inactive |
